The entries are a selection whose mix differs from that of the whole data set. Activity calls are given as the source filed them. Calls come from the whole dose curve; as a rule, active = well fitted inhibition curve with a large enough effect in the main read-out, with a control signal flat (not every such curve was filed as active); inconclusive = small, poorly fitted or top-dose-only effect, or effect the other way, or a change in a side signal; inactive = no such curve, though single readings can be large or run the other way.
These compounds were tested against Tumor susceptibility gene 101 protein (Homo sapiens) (UniProt Q99816) (assay: qHTS Assay for Iinhibitors of HIV-1 Budding by Blocking the Interaction of PTAP/TSG101). Conditions: Fluorescence polarization, FITC-PTAP peptide / Tsg101 binding; at 115 µM (top of the series).
Description: NIH Molecular Libraries Probe Production Network [MLPCN] NIH Chemical Genomics Center [NCGC] MLPCN Grant: 1 R03 MH087464-01A1 PI Name: Dr. Eric Freed, NCI NCGC Assay Overview: Stages of the HIV-1 replication cycle, specifically virus assembly and release, provide underexploited targets for the development of novel antiviral inhibitors. The late stages of HIV-1 replication are mediated by the Gag precursor protein, Pr55Gag. Expression of Pr55Gag is both necessary and sufficient for the production of virus-like particles from Gag-expressing cells. The Gag protein hijacks key host proteins involved in endocytic machinery of the host cell to promote endosomal processing and viral budding. The budding process requires a direct interaction between a […] (PTAP) motif in the p6 domain of Gag and the cellular endosomal sorting protein known as Tsg101. In this way, the Gag PTAP motif promotes the host cells to recruit viral particles to the plasma membrane where the new viral particles are released, effectively turning the host cells into viral factories. A fluorescence anisotropy assay has been developed to quantitatively measure the PTAP-Tsg101 interaction which can be used to screen for inhibitors of this interaction.
NCGC Assay Protocol Summary: Two uL of the Tsg101 binding domain in buffer (10 mM HEPES pH 7.5; 0.15 M NaCl, 0.01% Tween 20; 3 mM EDTA;0.1 mM TCEP) was dispensed into Greiner black MB 1536-well plates (final concentration 10 uM). Then, 23 nL of compounds or DMSO were delivered to each well using a pin tool. Finally, 2 uL of a FITC-labeled peptide containing the PTAP motif (1) in the same buffer was dispensed (50 nM final concentration) and the binding was allowed to proceed for 20 min. at r.t. Fluorescent polarization was determined using FITC excitation and polarized emission filters on a Perkin Elmer Viewlux. Keywords: Tsg101, PTAP, Gag, HIV, fluorescent polarization, MLSMR, MLPCN, NIH Roadmap, qHTS, NCGC
Note: % of control where 0% means no effect.

By UniProt entry, the sequences of proteins in these tests, tags left out.
UniProt Q99816, whole entry: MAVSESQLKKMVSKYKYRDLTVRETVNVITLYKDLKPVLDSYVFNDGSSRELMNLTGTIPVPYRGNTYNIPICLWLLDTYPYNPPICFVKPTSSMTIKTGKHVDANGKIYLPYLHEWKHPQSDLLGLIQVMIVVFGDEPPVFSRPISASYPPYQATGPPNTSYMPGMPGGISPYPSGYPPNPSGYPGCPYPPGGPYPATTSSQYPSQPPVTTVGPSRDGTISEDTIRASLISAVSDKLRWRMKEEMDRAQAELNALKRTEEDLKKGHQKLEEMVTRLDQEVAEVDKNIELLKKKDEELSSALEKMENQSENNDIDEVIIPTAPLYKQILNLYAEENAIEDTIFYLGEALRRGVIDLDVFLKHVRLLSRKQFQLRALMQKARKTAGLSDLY

Structure (SMILES)	activity change, negative = inhibition
O=C(NCC1(N2CCCCC2)CCCCC1)c1cncc(Br)c1	inactive: -2%
O=C(OC1CN2CCC1CC2)c1ccc([N+](=O)[O-])cc1 (stereo not drawn)	inactive: -2.11%
CCCOc1ccc(C(=O)NCC2(N(C)C)CCCCC2)cc1OC	inactive: -2.24%
O=C(NCC1(N2CCCCC2)CCCCC1)c1ccc(=O)[nH]c1	inactive: -3.76%
O=C(NCC1(N2CCCCC2)CCCCC1)c1cccs1	inactive: -1.02%
COc1ccc(C(=O)NCC2(N3CCCCC3)CCCCC2)cc1	inactive: 0.327%
CC(C)(C)OC(=O)N1CCC(N(C(=O)c2ccccc2)c2ccc(F)cc2)CC1	inactive: -6.55%
COc1ccc(C(=O)NCC2(N3CCCCC3)CCCCC2)c(OC)c1OC	inactive: -8.41%
CSc1ccccc1C(=O)NCC1(N2CCCCC2)CCCCC1	inactive: -13.1%
Cc1cccc(NC2(C#N)CCN(Cc3ccccc3)CC2)c1	inactive: -0.681%
O=C(NCC1(N2CCOCC2)CCCCC1)c1cc2ccccc2o1	inactive: -0.0013%
O=C(NCC1(N2CCCCC2)CCCCC1)c1ccc(Cl)nc1	inactive: -9.08%
Cc1cc(C)cc(N(C(=O)c2ccccc2)C2CCN(C(=O)OC(C)(C)C)CC2)c1	inactive: -4.47%
CCOC(=O)N1CCC(Nc2ccc(OC)cc2)CC1	inactive: -0.633%
O=C(NCC1(N2CCCCC2)CCCCC1)c1ccc(Cl)s1	inactive: -0.89%
N#CC1(Nc2ccccc2)CCN(Cc2ccccc2)CC1	inactive: -4.55%
O=C(OC1CN2CCC1CC2)C1c2ccccc2Oc2ccccc21 (stereo not drawn)	inactive: -2.24%
COc1ccc(Cl)cc1C(=O)NCC1(N2CCOCC2)CCCCC1	inactive: 1.15%
O=C1C(O)=C([N+](=O)[O-])C(=O)C(O)=C1[N+](=O)[O-]	inactive: -7.32%
CCOc1ccc(C)cc1CN(CCCl)CCCl	inactive: -2.66%
O=C1CCN(Cc2ccccc2)CC1	inactive: -2.62%
CCCCOc1ccc(C(=O)NCC2(N3CCOCC3)CCCCC2)cc1	inactive: -0.16%
O=P1(N(CCCl)CCCl)SCCCS1	inactive: -7.14%
O=C(NCC1(N2CCCCC2)CCCCC1)c1ccc(F)cc1	inactive: -0.801%
CCOC(=O)N1CCC(Nc2ccc(F)cc2)CC1	inactive: -1.42%
COc1ccc(NC2CCN(CCc3ccccc3)CC2)c(OC)c1	inactive: -0.621%
CCOC(=O)N1CCC(Nc2cccc(C)c2)CC1	inactive: -0.959%
COc1cc(C(=O)NCC2(N(C)C)CCCCC2)ccc1OC(F)F	inactive: -6.13%

— PubChem BioAssay AID493005 (National Center for Advancing Translational Sciences (NCATS), 2010)
